A mixed list of measured activities; the numbers were collected in NIAID ChemDB.

All rows: target-level tests; agent: HIV-1; target: Reverse transcriptase; read by: ELISA; read-out: inhibition

Lines come from different laboratories, so protocols vary.

| SMILES | tested at | result |
|---|---|---|
| CS(=O)(=O)O.C[C@@H]1CN(c2cc3c(cc2F)c(=O)c(C(=O)O)cn3-c2cccc3ccccc23)C[C@H](C)N1 | 1 µg/mL | 47% |
| CSc1ncc(C(N)=O)c(Nc2ccc3cn[nH]c3c2)n1 | 1 µg/mL | 62% |
| C=CCN1C(=O)c2ccnnc2Oc2ccc(OC)cc21 | 33 µM | 35% |
| Cc1cccc(CSc2nc(Cc3ccccc3)c(C)c(=O)[nH]2)c1 | 100 µM | 0% |
| CCOC(=O)CN1C(=O)c2cc(Cl)nnc2Oc2ccccc21 | 33 µM | 26% |
| CCOC(=O)CC(OCC)n1cc(F)c(=O)[nH]c1=O | 10 µM | 42% |
| CN1C(=O)c2ccnnc2N(C2CC2)c2ccccc21 | 330 µM | 72% |
| COC(=O)c1cc(O)c(O)c(O)c1 | 100 µM | 55.6% |
| CCOC(CC(=O)OC)n1ccc(=O)[nH]c1=O | 10 µM | 65% |
| CN1CCN(c2cc3c(cc2F)c(=O)c(C(=O)O)cn3-c2ccc3ccccc3c2)CC1.CS(=O)(=O)O | 1 µg/mL | 38% |
| Clc1cc(Cc2ccccc2)nc(SCCc2ccccc2)n1 | 100 µM | 0% |
| CCOC(=O)CN1C(=O)c2ccnnc2Oc2ccccc21 | 330 µM | 43% |
| COc1cccc(CSc2nc(Cl)cc(Cc3ccccc3)n2)c1 | 100 µM | 0% |
| CN1C(=O)c2cc(Cl)nnc2N(C2CC2)c2ccccc21 | 33 µM | 56% |
| CCOC(=O)CC(OCC)n1ccc(=O)[nH]c1=O | 10 µM | 70% |
| CCOC(=O)CN1C(=O)c2ccnnc2Oc2ccc(C)cc21 | 33 µM | 26% |
| Cc1c(Cc2ccccc2)nc(SCc2ccc(C(C)(C)C)cc2)[nH]c1=O | 100 µM | 0% |
| CN1CCN(c2nc3c(cc2F)c(=O)c(C(=O)O)cn3-c2ccc3ccccc3c2)CC1.CS(=O)(=O)O | 1 µg/mL | 39% |
| COC(CC1O[C@H]([C@H](C)[C@@H](O)[C@@H](C)/C=C/C=C(/C)C(=O)NC2=CC(=O)c3c(c(O)c(C)c4oc(C)cc34)C2=O)[C@@H](C)[C@H](OC(C)=O)[C@@H]1C)OC | 300 µM | 0% |
| COc1ccc2c(c1)N(CC(C)C)C(=O)c1cc(Cl)nnc1O2 | 330 µM | 33% |
| CC(C)(C)c1ccc(CSc2nc(N)cc(Cc3ccccc3)n2)cc1 | 100 µM | 0% |
| Cc1c(Cc2ccccc2)nc(SCc2ccccc2)[nH]c1=O | 100 µM | 0% |
| CC(=O)O[C@@H]([C@H](C)[C@H](O)[C@H](C)[C@@H](O)[C@@H](C)/C=C/C=C(/C)C(=O)NC1=CC(=O)c2c(c(O)c(C)c3oc(C)cc23)C1=O)[C@H](C)/C=C\C=O | 300 µM | 0% |
| C[n+]1ccc(-c2c3nc(c(-c4cc[n+](C)cc4)c4ccc([nH]4)c(-c4cc[n+](C)cc4)c4nc(c(-c5cc[n+](C)cc5)c5ccc2[nH]5)C=C4)C=C3)cc1 | 6 µM | 24% |
| CCCOC(=O)CC(OCC)n1cc(C)c(=O)[nH]c1=O | 10 µM | 56% |
| CC1CN(c2nc3c(cc2F)c(=O)c(C(=O)O)cn3-c2cccc3ccccc23)CCN1.CS(=O)(=O)O | 1 µg/mL | 49% |
| CCN1C(=O)c2ccnnc2Oc2cc(C)ccc21 | 33 µM | 17% |
| CS(=O)(=O)O.N[C@H]1CCN(c2nc3c(cc2F)c(=O)c(C(=O)O)cn3-c2ccc3ccccc3c2)C1 | 1 µg/mL | 63% |
| Oc1ccccc1C=NCCN=Cc1ccccc1O | 6 µM | 39% |
| CCCN1C(=O)c2ccnnc2Oc2c(C)cc(C)cc21 | 33 µM | 56% |
| CS(=O)(=O)O.N[C@H]1CCN(c2nc3c(cc2F)c(=O)c(C(=O)O)cn3-c2cccc3ccccc23)C1 | 1 µg/mL | 31% |
| COC(=O)/C(C)=C\C=C\[C@H](C)[C@H](OC(C)=O)[C@@H](C)[C@@H](OC(C)=O)[C@@H](C)[C@H](OC(C)=O)[C@H](C)[C@H](/C=C/O[C@@]1(C)Oc2c(C)c(O)c3c(c2C1=O)C(=O)C=C(N)C3=O)OC | 300 µM | <20% |
| Clc1cc(Cc2ccccc2)nc(SCCCc2ccccc2)n1 | 100 µM | 0% |

Percent inhibition refers to the dose given; in toxicity tests it is the harm to the cells.